This data set is described as follows: Microdialysis catheter relative recovery (retrodialysis by drug). More on the design: species or system pigs (Danish Landrace breed). Conditions: microdialysis CMA 70 catheters, 0.9% NaCl with 100 µg/mL meropenem and 300 µg/mL vancomycin, 40 min recovery sample, flow 1 μL/min, range of means across compartments.

Molecules are shown by their SMILES.

`C[C@@H](O)[C@H]1C(=O)N2C(C(=O)O)=C(S[C@@H]3CN[C@H](C(=O)N(C)C)C3)[C@H](C)[C@H]12` [Meropenem, meropenem]: the “mean relative recoveries across compartments” value is 30–51%.
